Type in all cases: cell-based, human
The subject of one assay is CD28^+/CD4^+ T cells. Kind of assay: Cytokines secreted by expanded T cells, ELISA/bioassay (Example 6). The following applies: with anti-CD3. (In an ELISA, binding on a coated surface is turned into a signal by an enzyme label.)
The subject of the next assay is CD28^+, CD4^+ T cells. Briefly: Long term growth of CD4+ T cells in medium containing fetal calf serum (Example 2). Particulars: RPMI 10% FCS. An excerpt: Another series of experiments tested whether the growth advantage of CD28 receptor stimulation was due to replacement of factors normally present in fetal calf serum.
A further assay relates to CD4^+ T cells. Briefly: Immunophenotype of enriched CD4+ T cells after 26 days in culture (Example 4). Particulars: day 26 of culture, with anti-CD3.
The subject of assay [1] is peripheral blood lymphocytes. Kind of assay: Immunophenotype of PBL propagated 16 days (Example 4). The following applies: day 16; plastic immobilized anti-CD3 G19-4. An excerpt:
To examine the subsets of T cells that are expanded, PBL were propagated for 16 days using either anti-CD3 and IL-2 or anti-CD3 and anti-CD28. […] Mononuclear cells were isolated from blood by ficoll hypaque density gradient centrifugation. The cells were stained with CD4 and CD8 monoclonal antibodies, and analyzed for the percent positive cells on day 0. […] The cells were isolated from culture on day 16, and repeat staining for CD4 and CD8 antigens was done by flow cytometry. Data was gated on the lymphocyte population by forward angle light scatter and side scatter. By this analysis, the % CD4 and CD8 cells were 8.0% and 84.5% in the cells grown in IL-2, and 44.6% and 52.5% in the cells grown in CD28.

In the assay on CD28^+/CD4^+ T cells (stimulation cycle S1), “IL-2: interleukin 2 added as exogenous growth factor, used with anti-CD3” displayed a GM-CSF of 2303 pg/mL, an IFN-γ of 1458 pg/mL, an IL-2 of 20714 pg/mL and an IL-4 of 16 pg/mL. In the assay on CD28^+/CD4^+ T cells (stimulation cycle S1), this substance gave a TNFα of 789 pg/mL. Further, in the assay on CD28^+/CD4^+ T cells (stimulation cycle S2), the GM-CSF was found to be 51251 pg/mL, the IFN-γ was determined as 16600 pg/mL, the IL-2 worked out at 20250 pg/mL and the IL-4 stood at 964 pg/mL. In addition, the TNFα in the assay with CD28^+/CD4^+ T cells (stimulation cycle S2) worked out at 3221 pg/mL. In the assay on CD28^+/CD4^+ T cells (stimulation cycle S3), this substance showed a GM-CSF of 86418 pg/mL, an IFN-γ of 8617 pg/mL, an IL-2 of 21282 pg/mL and an IL-4 of 1153 pg/mL. Also, the TNFα in the assay with CD28^+/CD4^+ T cells (stimulation cycle S3) was found to be 2899 pg/mL. Also, the “fold expansion of the initial culture” value in the assay on CD28^+, CD4^+ T cells is 10,000 fold. Moreover, the predominant cell phenotype entry in the assay on CD4^+ T cells is “predominantly CD8^+”. Besides, in assay [1], the “% CD4 cells” value is recorded as 8.0% and the “% CD8 cells” value stood at 84.5%.
